In article PMC4644190, “Optimizing Nanoplasmonic Biosensor Sensitivity with Orientated Single Domain Antibodies” (Plasmonics (Norwell, Mass.), 2015):

B1:  (VHH)
VHH: EVQLQASGGGLVQDGGSLRLSCAVAGRPLSDYGVGWFRQASGKEREFVAVISGSGIVTDYANSVKGRFTISRDVAKNVVHLQMNSLKPEDTAVYYCAALTNPVYAASRNSNDYGYWGQGTQVTVSS
B2: C8-zip (genetic fusion of the C8 sdAb with a positively charged leucine zipper) (VHH)
VHH: EVQLQASGGGLVQGGDSLRLSCAASGRTLGDYGVAWFRQAPGKEREFVSVISRSTIITDYANSVKGRFTISRDNAKNAVYLQMNSLKPEDTAVYYCAVIANPVYATSRNSDDYGHWGQGTQVTVSS

Target: ricin (Ricinus communis (species ; …, UniProt P02879)
Experiment: LSPR imaging

| Binder | binding result | LSPRi saturation response to 100 nM ricin, relative to the C8 surface [% greater] |
| --- | --- | --- |
| B1 | binds |  |
| B2 |  | 104 |
